Results of unrelated studies side by side (data: NIAID ChemDB).

Common to all: enzyme or target tests

ICn: concentration for n% inhibition. Percent inhibition refers to the dose given; in toxicity tests it is the harm to the cells. Rows are shuffled and stem from different studies.

{"SMILES": "Nc1nc(=O)n([C@@H]2O[C@H](CO)[C@@H](O)[C@@H]2F)cc1/C=C/C(=O)O", "strain": "G", "dose": "200 µM", "measure": "inhibition", "protein": "Thymidine kinase", "species": "Herpes simplex virus 2", "result": "0%"}
{"SMILES": "C#C[C@H]1O[C@@H](n2cc(C)c(=O)[nH]c2=O)C[C@@H]1O", "strain": "B3", "measure": "IC50", "protein": "Thymidine kinase", "species": "Herpes simplex virus 1", "result": "6 µM"}
{"SMILES": "O=c1[nH]c(=O)n([C@@H]2O[C@H](CO)[C@@H](O)[C@@H]2F)cc1/C=C/Br", "strain": "G", "dose": "200 µM", "measure": "inhibition", "protein": "Thymidine kinase", "species": "Herpes simplex virus 2", "result": "14%"}
{"SMILES": "O=c1[nH]c(=O)n([C@@H]2O[C@H](CO)[C@@H](O)[C@@H]2F)cc1/C=C/Br", "strain": "KOS", "measure": "Ki", "protein": "DTHD kinase", "species": "Herpes simplex virus 1", "result": "0.67 µM"}
{"SMILES": "Nc1nc2c(ncn2[C@@H]2O[C@H](CO)[C@@H](OP(=O)(O)O)[C@H]2O)c(=O)[nH]1", "measure": "IC50", "protein": "DNA polymerase", "species": "Herpes simplex virus 1", "result": "<2000 µM"}
{"SMILES": "C/C(=N\\NC(=S)NNC(=S)Nc1ccccc1I)c1ccccn1", "measure": "IC50", "protein": "Ribonucleotide reductase", "species": "Herpes simplex virus 1", "result": ">5 µM"}
{"SMILES": "CC[C@@H](NC(=O)[C@@H](NC(=O)[C@H](CC(=O)C(C)(C)C)NC(=O)[C@@H](NC(=O)NC1[C@H](C)CCC[C@@H]1C)C(C)(C)C)C1(C(=O)O)CCCC1)C(C)(C)C", "measure": "IC50", "read by": "radioligand binding / binding", "protein": "Ribonucleotide reductase", "species": "Herpes simplex virus 2", "result": "<0.001 µM"}
{"SMILES": "NC(=O)c1ncn([C@@H]2O[C@H](COP(=O)(O)O)[C@@H](O)[C@H]2O)n1", "measure": "IC50", "protein": "DNA polymerase", "species": "Herpes simplex virus 1", "result": "<2000 µM"}
{"SMILES": "CCc1cn([C@@H]2O[C@H](CO)[C@@H](O)[C@@H]2F)c(=O)nc1N", "strain": "G", "dose": "200 µM", "measure": "inhibition", "protein": "Thymidine kinase", "species": "Herpes simplex virus 2", "result": "0%"}
{"SMILES": "O=c1[nH]c(=O)n([C@H]2C[C@H](O)[C@@H](CO)O2)cc1/C=C/Br", "strain": "333", "measure": "Ki", "protein": "DTHD kinase", "species": "Herpes simplex virus 2", "result": "4.24 µM"}
{"SMILES": "C/C(=N\\NC(=S)NNC(=S)Nc1ccc(I)cc1)c1ccccn1", "measure": "IC50", "protein": "Ribonucleotide reductase", "species": "Herpes simplex virus 1", "result": ">5 µM"}
{"SMILES": "O=c1[nH]cnc2c1ncn2[C@@H]1O[C@H](CO)[C@@H](O)[C@H]1O", "measure": "IC50", "protein": "DNA polymerase", "species": "Herpes simplex virus 1", "result": "<2000 µM"}
{"SMILES": "Cc1cn([C@@H]2O[C@H](CO)[C@@H](O)[C@@H]2O)c(=O)[nH]c1=O", "strain": "333", "measure": "Ki", "protein": "DTHD kinase", "species": "Herpes simplex virus 2", "result": "43.37 µM"}
{"SMILES": "Nc1nc(-c2ccc(NC(=O)CNCc3ccccc3)cc2)cs1", "measure": "IC50", "protein": "Helicase", "species": "Herpes simplex virus 1", "result": "8.3 µM"}
{"SMILES": "Nc1nc2c(ncn2COCCOP(=O)(O)OP(=O)(O)OP(=O)(O)O)c(=O)[nH]1", "measure": "Ki", "protein": "DNA polymerase", "species": "Herpes simplex virus 1", "result": "0.07 µM"}
{"SMILES": "COc1ccc(NC(=S)NNC(=S)N/N=C(\\C)c2ccccn2)cc1", "measure": "IC50", "protein": "Ribonucleotide reductase", "species": "Herpes simplex virus 1", "result": ">5 µM"}
{"SMILES": "Nc1nc(=O)n([C@@H]2O[C@H](CO)[C@@H](O)[C@@H]2F)cc1/C=C/I", "strain": "F", "dose": "200 µM", "measure": "inhibition", "protein": "Thymidine kinase", "species": "Herpes simplex virus 1", "result": "36.4%"}
{"SMILES": "Nc1nc2c(ncn2[C@@H]2O[C@H](COP(=O)(O)O)[C@@H](O)[C@H]2O)c(=O)[nH]1", "measure": "IC50", "protein": "DNA polymerase", "species": "Herpes simplex virus 1", "result": ">2000 µM"}
{"SMILES": "CCCC(CCC)NC(=O)N[C@H](C(=O)C[C@@H](CC(=O)C(C)(C)C)C(=O)N[C@H](C(=O)N[C@H](CC)C(C)(C)C)C1(C(=O)O)CCCC1)C(C)(C)C", "measure": "IC50", "read by": "radioligand binding / binding", "protein": "Ribonucleotide reductase", "species": "Herpes simplex virus 2", "result": "<0.001 µM"}
{"SMILES": "C/C=C/c1cn([C@@H]2O[C@H](CO)[C@@H](O)[C@@H]2O)c(=O)[nH]c1=O", "strain": "C42", "dose": "100 µM", "measure": "inhibition", "protein": "Thymidine kinase", "species": "Herpes simplex virus 1", "result": "87%"}
{"SMILES": "C/C(=N\\NC(=S)NNC(=S)NC1CCCC1)c1ccccn1", "measure": "IC50", "protein": "Ribonucleotide reductase", "species": "Herpes simplex virus 1", "result": ">5 µM"}
{"SMILES": "O=c1[nH]c(=O)n([C@@H]2O[C@H](CO)[C@@H](O)[C@@H]2O)cc1/C=C/Br", "strain": "C42", "dose": "10 µM", "measure": "inhibition", "protein": "Thymidine kinase", "species": "Herpes simplex virus 1", "result": "72%"}
{"SMILES": "Cc1cn([C@@H]2O[C@H](CO)[C@@H](O)[C@@H]2Cl)c(=O)nc1N", "strain": "333", "measure": "Ki", "protein": "DTHD kinase", "species": "Herpes simplex virus 2", "result": "29.24 µM"}
{"SMILES": "C/C=C/c1cn([C@H]2C[C@H](O)[C@@H](CO)O2)c(=O)[nH]c1=O", "strain": "C42", "dose": "5 µM", "measure": "inhibition", "protein": "Thymidine kinase", "species": "Herpes simplex virus 1", "result": "60%"}
{"SMILES": "C[C@@H]1CCC[C@H](C)C1NC(=O)N[C@H](C(=O)C[C@@H](CC(=O)C(C)(C)C)C(=O)N[C@H](C(=O)NCC(C)(C)C)C1(C(=O)O)CCCC1)C(C)(C)C", "measure": "IC50", "read by": "radioligand binding / binding", "protein": "Ribonucleotide reductase", "species": "Herpes simplex virus 2", "result": "<0.001 µM"}

3 of the rows above, restated:

{"SMILES": "O=c1[nH]cnc2c1ncn2[C@@H]1O[C@H](CO)[C@@H](O)[C@H]1O", "measure": "IC50", "protein": "DNA polymerase", "species": "Herpes simplex virus 1", "result": "<2000 µM"}
{"SMILES": "Nc1nc(-c2ccc(NC(=O)CNCc3ccccc3)cc2)cs1", "measure": "IC50", "protein": "Helicase", "species": "Herpes simplex virus 1", "result": "8.3 µM"}
{"SMILES": "C[C@@H]1CCC[C@H](C)C1NC(=O)N[C@H](C(=O)C[C@@H](CC(=O)C(C)(C)C)C(=O)N[C@H](C(=O)NCC(C)(C)C)C1(C(=O)O)CCCC1)C(C)(C)C", "measure": "IC50", "read by": "radioligand binding / binding", "protein": "Ribonucleotide reductase", "species": "Herpes simplex virus 2", "result": "<0.001 µM"}